Laboratory results as given in paper PMC4382590 (Biochemistry, 2015).

Test system: CCCCC/C=C/C(=O)SCCNC(=O)CCNC(=O)[C@H](O)C(C)(C)COP(=O)(O)OP(=O)(O)OC[C@H]1O[C@@H](n2cnc3c(N)ncnc32)[C@H](O)[C@@H]1OP(=O)(O)O
Test: purified protein
Conditions: 350 μM NADPH

| Substance | kcat/Km [M⁻¹ s⁻¹] | Km [µM] | kcat [s⁻¹] |
| --- | --- | --- | --- |
| saFabI (Staphylococcus aureus subsp. aureus MRSA252; D249A) | 200 ± 16.7 |  |  |
| saFabI (Staphylococcus aureus subsp. aureus MRSA252; S189A) | 25000 ± 667 |  |  |
| saFabI (Staphylococcus aureus subsp. aureus MRSA252; Y147F) | 273000 | 44.2 ± 14.5 | 12.1 |
